Anti-infective test results gathered from many reports (values: NIAID ChemDB through PubChem).

Common to all: growth or infection tests; species: HIV-1; method: RT activity; read-out: inhibition

Blank or dashed fields: not listed here. Inhibition is in % at the dose shown (toxicity tests: loss of growth or viability). Lines come from different laboratories, so protocols vary.

smiles,conditions,dose,mutations,strain,cell line,result
Cc1cn([C@H]2C[C@H](N=[N+]=[N-])[C@@H](CO)O2)c(=O)[nH]c1=O,,0.0156 µM,,IIIB,MT-4,69.7%
Nc1ccn([C@H]2CC[C@@H](CO)O2)c(=O)n1,,0.2 µM,,SF162 R5,PBL (resting) + PBL,95%
Cc1cn([C@H]2C[C@H](N=[N+]=[N-])[C@@H](COP(=O)(O)OC[C@H]3OC(O)[C@H](O)[C@@H](O)[C@@H]3O)O2)c(=O)[nH]c1=O,7 d,25 µM,,LAV-Bru,CEM,96%
CCSCCCCCCCCCCC(=O)O,,100 µM,,,H9,92%
COc1cc([C@H]2OC[C@H]3[C@@H]2CO[C@@H]3c2ccc3c(c2)OCO3)cc(OC)c1OC,,10.6 µM,,IIIB,H9,71%
OCC(S)CS,,5 µg/mL,,IIIB-C-3,CEM,92%
Cc1ccc(C(=O)OC[C@H]2O[C@@H](n3cc(-c4cccn4C)c(N)nc3=O)C[C@@H]2OC(=O)c2ccc(C)cc2)cc1,,10 µg/mL,,IIIB,H9,15%
CC(C)(C)OC(=O)CNC(=O)[C@@H]1CSC(=O)N1,,2000 µM,,BaL,Macrophage + Monocytes/macrophages,0%
CNCCC=C1c2ccccc2CCc2ccccc21,,1 µg/mL,,IIIB,MOLT-3,15%
Cc1ccc(C(=O)OC[C@H]2O[C@@H](n3cc(-c4cccs4)c(N)nc3=O)C[C@@H]2O)cc1,,10 µg/mL,,IIIB,H9,5%
CCN(CCO)CCCC(C)Nc1ccnc2cc(Cl)ccc12,,1000 µg/mL,,IIIB,CEM,80%
COc1ccccc1CN[C@H]1C2CCN(CC2)[C@H]1C(c1ccccc1)c1ccccc1,,0.1 µM,,BL-6 Primary R5 isolate,Macrophage + Monocytes/macrophages,50%
[Se],,0.1 µg/mL,,LAV,U1,26%
CN(C)CCC=C1c2ccccc2CCc2ccccc21,,10 µg/mL,,IIIB,MOLT-3,20%
Cc1cn([C@H]2C[C@H](N=[N+]=[N-])[C@@H](COP(=O)(O)OC[C@H]3OC(O)[C@@H](O)[C@@H](O)[C@@H]3O)O2)c(=O)[nH]c1=O,22 d,5 µM,,LAV-Bru,CEM,0%
CC(C)(C)OC(=O)N[C@@H](CCC(=O)N1C(=O)SC[C@H]1C(=O)O)C(=O)OC(C)(C)C,,2000 µM,,BaL,Macrophage + Monocytes/macrophages,0%
CCCCCCCCOCCCCC(=O)O,,100 µM,,,H9,83%
Cc1ccsc1-c1cn([C@@H]2C[C@H](O)[C@@H](CO)O2)c(=O)[nH]c1=O,,10 µg/mL,,IIIB,H9,8%
CCCCCCCCCCCCCCCCOC[C@H](CCl)OP(=O)(O)OCC[N+](C)(C)C,,1 µM,,IIIB,H9,76%
CC(C)(C)NC(=O)[C@@H]1C[C@@H]2CCCC[C@@H]2CN1C[C@@H](O)[C@H](Cc1ccccc1)NC(=O)[C@H](CC(N)=O)NC(=O)c1ccc2ccccc2n1,10 d,0.1 µM,PR-L10R M46I L63P V82T I84V,Indinavir-resistant (PR-L10R M46I L63P V82T I84V),CEM + CEM-SS,100%
N[C@@H](CCC(=O)N[C@@H](CS)C(=O)NCC(=O)O)C(=O)O,,1000 µM,,LAV,U1 (HIV-1 LAV PMA stimulated) + U1,20%
Cc1cn([C@H]2C[C@H](N=[N+]=[N-])[C@@H](CO)O2)c(=O)[nH]c1=O,,50 µg/mL,,,H9,88%
OCCN1CCN(CC/C=C2/c3ccccc3Sc3ccc(C(F)(F)F)cc32)CC1,,2 µg/mL,,IIIB,MOLT-3,57%
c1cc2c(cc1[C@H]1OC[C@H]3[C@@H]1CO[C@@H]3c1ccc3c(c1)OCO3)OCO2,,8.2 µM,,IIIB,H9,81%
CC[C@@]1(O)C(=O)OCc2c1cc1n(c2=O)Cc2cc3ccccc3nc2-1,,0.02 µM,,IIIB,H9,93%
O=C(O)P(=O)(O)O,21 d,128 µM,,IIIB,PBL,87%
COc1cc(C[C@H]2C(=O)OC[C@@H]2Cc2ccc(OC)c(OC)c2)ccc1O,,0.13 µM,,IIIB,H9,69%
Nc1nc(=O)n([C@@H]2C[C@H](O)[C@@H](CO)O2)cc1C1CC1,,10 µg/mL,,IIIB,H9,36%
Nc1nc(Cl)nc2c1ncn2[C@H]1CC[C@@H](CO)O1,,20 µM,,HXBc2,C8166,43%
Nc1nc(=O)n([C@@H]2C[C@H](O)[C@@H](CO)O2)cc1-c1ccco1,,10 µg/mL,,IIIB,H9,27.5%
COc1cc(C[C@@]2(O)C(=O)OC[C@@H]2Cc2ccc(OC)c(OC)c2)ccc1O,,0.52 µM,,IIIB,H9,57%
CC(=O)N[C@@H](CS)C(=O)O,,2000 µM,,BaL,Macrophage + Monocytes/macrophages,12%
O=c1[nH]cnc2c1ncn2[C@H]1CC[C@@H](CO)O1,,9 µM,,SF162 R5,PBL (activated) + PBL,49%
Cc1cn([C@H]2C[C@H](N=[N+]=[N-])[C@@H](CO)O2)c(=O)[nH]c1=O,7 d,1 µM,,LAV-Bru,PBL,94%
COCCCCCCCCCCCC(=O)O,,100 µM,,,H9,90%
C[C@H]1[C@H](O)[C@@H](C)/C=C/C=C/C=C/C=C/C=C/C=C/C=C/[C@H](O[C@@H]2O[C@H](C)[C@@H](O)[C@H](N)[C@@H]2O)C[C@@H]2O[C@](O)(C[C@@H](O)C[C@@H](O)CC[C@H](O)[C@@H](O)C[C@@H](O)CC(=O)O[C@H]1C)C[C@H](O)[C@H]2C(=O)O,,10 µg/mL,,,H9,86%
Cc1cn([C@H]2C[C@H](N=[N+]=[N-])[C@@H](CO)O2)c(=O)[nH]c1=O,,0.01 µM,,IIIB,PBMC,60%
Nc1nc(=O)n([C@@H]2C[C@H](O)[C@@H](CO)O2)cc1-c1ccoc1,,10 µg/mL,,IIIB,H9,20%
CCOC(=O)[C@@H]1CSC(=O)N1,,2000 µM,,BaL,Macrophage + Monocytes/macrophages,14%
Nc1nc(=O)n([C@H]2C[C@H](O)[C@@H](CO)O2)cc1-c1cccnc1,,10 µg/mL,,IIIB,H9,17.5%
Cc1ccnc2c1NC(=O)c1cccnc1N2C1CC1,,0.3 µM,,IIIB,PBL (activated) + PBL,90%

The first 4 rows once more:

smiles,conditions,dose,mutations,strain,cell line,result
Cc1cn([C@H]2C[C@H](N=[N+]=[N-])[C@@H](CO)O2)c(=O)[nH]c1=O,,0.0156 µM,,IIIB,MT-4,69.7%
Nc1ccn([C@H]2CC[C@@H](CO)O2)c(=O)n1,,0.2 µM,,SF162 R5,PBL (resting) + PBL,95%
Cc1cn([C@H]2C[C@H](N=[N+]=[N-])[C@@H](COP(=O)(O)OC[C@H]3OC(O)[C@H](O)[C@@H](O)[C@@H]3O)O2)c(=O)[nH]c1=O,7 d,25 µM,,LAV-Bru,CEM,96%
CCSCCCCCCCCCCC(=O)O,,100 µM,,,H9,92%